Columns and labels:
[1] = target: T1, HIV-1 protease (Human immunodeficiency virus type 1 group M subtype B, UniProt P04585); assay: Binding enthalpy by calorimetric titrations; details: calorimetric titration
T1 construct: the enzymatic activity of the HIV- 1 protease was measured

[2] = target: T1, HIV-1 protease; assay: HIV-1 protease enzymatic activity inhibition at two temperatures; format: biochemical; details: for Ki: inhibition constant, chromogenic substrate, [S]<<Km

`CC(C)C[C@H](NC(=O)[C@H](CC(=O)O)NC(=O)[C@@H](N)CCC(=O)O)C(=O)O` [Glu—Asp—Leu] was tested, and the “binding enthalpy measured directly by calorimetric titrations” value [1] was -3.6 kcal/mol, the “binding enthalpy calculated from the data in FIG. 3 using equation 6b” value ([2]; from inhibition constants at 15° C. and 35° C.) was -5 kcal/mol and the Ki ([2]; 15° C.) was 9 µM. For the same compound, the Ki ([2]; 35° C.) was 16 µM.

From patent US20010008763A1, “Method for high throughput thermodynamic screening of ligands” (priority 1999, published 2001)
